Experimental data taken from US9878058B2, “SHK-based pharmaceutical compositions and methods of manufacturing and using the same” (Kineta One, LLC, priority 2011, dated 2018).

Legend:
[1] = Surfactant screening under agitation (visual, SEC-HPLC); type: physicochemical
Protocol: In order to identify surfactant(s) for possible inclusion in the pharmaceutical compositions, the polypeptide is formulated in buffer, to which test surfactants are added individually, and compared with samples having no surfactant. Surfactants tested include polysorbate 20, polysorbate 80, and pluronic F68 at concentrations beginning with 0.01%.
To determine the effect of the surfactant, test samples and controls are subjected to agitation or no agitation. Test samples and controls are then analyzed by size-exclusion-HPLC (SEC-HPLC or SE-HPLC) to monitor changes in characteristics, including soluble aggregation and loss of monomer recovery.
Using this method, ShK-186 polypeptide preparations were subject to constant agitation for up to four hours at pH 5.8, in the presence of polysorbate 20 (0.01%), polysorbate 80 (0.01%), or pluronic F68 (0.10%) (Sigma-Aldrich).

[2] = Long-term (up to 12 month) stability of ShK-186 in P6N formulation; type: physicochemical
Protocol: The short-term stability of ShK-186 formulated in P6N is studied in three sets of conditions designed to replicate clinical use: 72-hour storage at variable temperatures, and 24-hour storage in sterile plastic syringes. Long-term stability is tested over 1, 3, 6 and 12 months of storage at refrigerated (such as 5° C.) and freezing (such as −70° C., −20° C.) temperatures.
For short-term studies, ShK-186 is diluted to a final concentration of 1 mg/ml using either 5% (w/v) dextrose or 0.9% (w/v) saline, or WFI solutions. A short-term stability study spans 72 hours of storage at refrigerated (such as 5° C.) and elevated (such as 40° C.) temperatures in each diluent. ShK-186 diluted in WFI, without preservatives, serves as a control. For long-term studies, ShK-186 is formulated in P6N at either 25 or 50 mg/ml, then aliquots are used to prepare samples having a final concentration as indicated, in mg/ml.
The stability of ShK-186 at three concentrations, 10, 25, and 50 mg/ml, under refrigerated and frozen storage temperatures is determined. Lyophilized ShK-186 is dissolved in P6N formulation to achieve these final concentrations of ShK-186. Each formulated solution is sterilized with 0.2 μm filters, and transferred into suitable sterile vials, such as type I borosilicate glass 3 cc vials at a fill volume of 0.5 ml per vial, under sterile conditions. The vials are stored at 5° C., −20° C., and −70° C. for testing at time points of zero, three and six months.
SkH-186 was formulated at 10 mg/ml and 25 mg/ml in 10 mM Sodium Phosphate, pH 6.0, containing 0.8% NaCl and 0.05% Polysorbate 20, and incubated for 12 months at 5° C., −20° C., and −70° C. […] Based on SE-HPLC results, the overall percentage of monomer for both formulations at the end of the study was about 98%.

With `CC[C@H](C)[C@@H]1NC(=O)[C@@H](NC(=O)[C@H](CO)NC(=O)[C@H](CCCNC(=N)N)NC(=O)COCCOCCNC(=O)[C@@H](N)Cc2ccc(OP(=O)(O)O)cc2)CSSC[C@@H](C(N)=O)NC(=O)[C@H]([C@@H](C)O)NC(=O)CNC(=O)[C@@H]2CSSC[C@@H]3NC(=O)[C@H](CCC(N)=O)NC(=O)[C@H](Cc4ccccc4)NC(=O)[C@H](C)NC(=O)[C@H]([C@@H](C)O)NC(=O)[C@H](CSSC[C@H](NC(=O)[C@H](Cc4ccccc4)NC(=O)[C@H](CO)NC(=O)[C@H](CC(C)C)NC(=O)[C@H](CCCNC(=N)N)NC(=O)[C@H](Cc4ccc(O)cc4)NC(=O)[C@H](CCCCN)NC(=O)[C@H](CCSC)NC(=O)[C@H](CO)NC(=O)[C@H](Cc4c[nH]cn4)NC(=O)[C@H](CCCCN)NC3=O)C(=O)N[C@@H](CCCNC(=N)N)C(=O)N[C@@H](CCCCN)C(=O)N[C@@H]([C@@H](C)O)C(=O)N2)NC(=O)[C@H](CCCNC(=N)N)NC(=O)[C@H](CO)NC(=O)[C@H](CCCCN)NC(=O)[C@@H]2CCCN2C(=O)[C@H]([C@@H](C)CC)NC(=O)[C@H]([C@@H](C)O)NC(=O)[C@H](CC(=O)O)NC1=O` [ShK-186] the “Soluble aggregation by SEC-HPLC” value ([1]; polysorbate 20 at 0.05%, pH lowered from 5.8 to 5.1) was “absence of soluble aggregation”, the “Appearance after constant agitation” value ([1]; up to four hours, pH 5.8, polysorbate 20 (0.01%), polysorbate 80 (0.01%), pluronic F68 (0.10%) or no surfactant) was “haziness with increased turbidity” and the “% HMV by SE-HPLC” value ([2]; 12 months, 5° C.) was 1.19%. The “Percentage of LMW species by SE-HPLC” value ([2]; 12 months, all temperatures) was “remained relatively unchanged”, the “% HMV by SE-HPLC” value ([2]; 12 months, frozen samples) was 0.95% and the “Overall percentage of monomer by SE-HPLC” value ([2]; end of 12 month study, both formulations) was “about 98%”.
